Measurements: US20130274178A1 (PHILADELPHIA HEALTH AND EDUCATION CORPORATION D B A DREXEL …, published 2013)

B1: UM10 (peptide)
peptide: PWSEAMM
modifications: proline 1 is a 1,2,3-triazole-modified proline (Azp) 4-substituted with ferrocene
notes: also called PWSEAMM
B2: UM21 (peptide)
peptide: INNIPWS
modifications: proline 5 is a 1,2,3-triazole-modified proline (Azp) 4-substituted with ferrocene
notes: Rink amide resin; also called INNIPWS
B3: UM13 (peptide)
peptide: EINNIPWS
modifications: proline 6 is a 1,2,3-triazole-modified proline (Azp) 4-substituted with ferrocene
notes: Rink amide resin

Assays:
HIV-1YU2 gp120 [1] = target: T1, HIV-1YU2 gp120 (HIV-1 strain YU-2, UniProt P35961 32-498, limits assumed); experiment: SPR direct binding; YU-2 gp120 immobilized (~3500 RU), peptide as analyte
T1 construct: domain: gp120

HIV-1YU2 gp120 [2] = target: T1, HIV-1YU2 gp120; experiment: SPR competition; gp120 binding to mAb 17b

Row | Binder | Kd (HIV-1YU2 gp120 [1]) | IC50 (HIV-1YU2 gp120 [2])
1 | B1 | 809 nM | 
2 | B2 | 169 nM | 161 nM
3 | B3 | 5.5 nM | 
